From the supplement of paper PMC9931576
Human monoclonal antibodies against the spike receptor-binding domain (heavy:light variable regions). IC50 against pseudoviruses bearing the spike of naturally observed variants; lower = stronger; >10 µg/ml means not reached at the top dose. No active / inactive call. The stated detection limit is 0.0005 µg/ml; values near or below 0.001 µg/ml lie at the floor of the assay.

What was measured:
Experiment in all cases: pseudovirus neutralization IC50; higher = weaker neutralization
[1] = target: SARS-CoV-2 Omicron BA.1 spike pseudovirus
Protocol: (§1)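 Single-round VSV luciferase pseudovirus mixed with antibody dilutions for 1 h and put on Huh-7 cells for about a day; IC50 from the dose curve.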

[2] = target: SARS-CoV-2 Omicron BA.2 spike pseudovirus
Protocol: as §1

[3] = target: SARS-CoV-2 Omicron BA.2.75 spike pseudovirus
Protocol: as §1

[4] = target: SARS-CoV-2 Omicron BA.5 spike pseudovirus
Protocol: as §1

[5] = target: SARS-CoV-2 Omicron BQ.1.1 spike pseudovirus
Protocol: as §1

[6] = target: SARS-CoV-2 Omicron XBB spike pseudovirus
Protocol: as §1

[7] = target: SARS-CoV-2 early D614G spike pseudovirus
Protocol: as §1

B1: BD56-1789 (protein)
chain 1: QVQLVQSGAEVRRPGSSVKVSCKASGGTFSSYTISWVRQAPGQGLEWMGRIIPVLGIPKYAQKFEGRVTITADKSTSTAYMEVNSLRSEDTAVYYCARDKDYSGSGSVYAMDVWGQGTTVAVSS
chain 2: QSVLTQPPSVSGAPGQRVTISCTGSNSNIGAGYDVHWYQKFPGTAPKLLIYVNNNRPSGVPDRFSGSQSGTSASLAITGLQPEDEADYYCQSYDSSLTDVVFGGGTKLTFL
pseudovirus neutralization IC50 [1]: > 10 µg/mL
pseudovirus neutralization IC50 [2]: > 10 µg/mL
pseudovirus neutralization IC50 [3]: > 10 µg/mL
pseudovirus neutralization IC50 [4]: > 10 µg/mL
pseudovirus neutralization IC50 [5]: > 10 µg/mL
pseudovirus neutralization IC50 [6]: > 10 µg/mL
pseudovirus neutralization IC50 [7]: > 10 µg/mL

B2: BD56-1783 (protein)
chain 1: QVQLQESGPGLVKPSGTLSLTCTVSGGSISSYYWSWIRQPPGKGLEWIGCIYYSGNTNYNPSLKSRVTISVDTSKNQFSLKLSSVTAADTAVYYCAGDYFDSTGYYYGFDYWGQGSLVTVSS
chain 2: EIVLTQSPGTLSLSPGERATLSCRASQTVSSSSLAWYQQKPGQAPRLLIYGTSSWATGIPDRFSGSGSGTDFTLTISRLEPEDFAVYYCQHYGDSRTFGQGTRVEIK
pseudovirus neutralization IC50 [1]: 0.702 µg/mL
pseudovirus neutralization IC50 [2]: 0.717 µg/mL
pseudovirus neutralization IC50 [3]: 1.07 µg/mL
pseudovirus neutralization IC50 [4]: 2.51 µg/mL
pseudovirus neutralization IC50 [5]: 1.24 µg/mL
pseudovirus neutralization IC50 [6]: 1.18 µg/mL
pseudovirus neutralization IC50 [7]: 2.65 µg/mL

B3: BD56-1776 (protein)
chain 1: EVQLVESGGGLVQPGGSLRLSCSASGFTFSSYAMHWVRQAPGKGLEYVSTISTNGGSTYYADSVKGRFTISRDNSKNMLYLQMSSLRAEDTAVYYCVKGNYLEYYYESTNDYWGQGTLVTVSS
chain 2: DIQMTQSPSSLSASVGDRVTITCRASQSISGYLNWYQQKPGKAPKLLISGASSLHSGVPSRFSGSGSGTDFTLTISSLQPEDFATYYCQQTYITPQTFGQGTKVEIK
pseudovirus neutralization IC50 [1]: 0.00349 µg/mL
pseudovirus neutralization IC50 [2]: 0.00129 µg/mL
pseudovirus neutralization IC50 [3]: 0.111 µg/mL
pseudovirus neutralization IC50 [4]: 2.03 µg/mL
pseudovirus neutralization IC50 [5]: > 10 µg/mL
pseudovirus neutralization IC50 [6]: > 10 µg/mL
pseudovirus neutralization IC50 [7]: 0.05 µg/mL

B4: BD56-1778 (protein)
chain 1: QVQLVESGGGVVQPGRSLRLSCAASGFSFSTYAMHWVRQAPGKGLEWVAVILDDGSSKIYADSVRGRFTISRDNSRNTLYLQMNSLSSEDTAVYYCARDEALVGATTLFDYWGQGTLVTVSS
chain 2: DIQMTQSPSSLSASVGDRVTITCRASQSVVRFLNWYQQRPGKAPKLLIYGASTLQTGVPSRFGGSGSGTDFTLTISSLQPEDFATYYCQQSYSTPPWTFGQGTKVEIK
pseudovirus neutralization IC50 [1]: > 10 µg/mL
pseudovirus neutralization IC50 [2]: > 10 µg/mL
pseudovirus neutralization IC50 [3]: > 10 µg/mL
pseudovirus neutralization IC50 [4]: > 10 µg/mL
pseudovirus neutralization IC50 [5]: > 10 µg/mL
pseudovirus neutralization IC50 [6]: > 10 µg/mL
pseudovirus neutralization IC50 [7]: > 10 µg/mL

B5: BD56-1791 (protein)
chain 1: QWQLQESGPGLVKPSETLSLTCTVSGGSIASPTSSYYWAWVRQPPGKGLEWIGSMYYSGNTYLNPSLKSRVTISLDTSKNQFSLKLTSVTVADTAVYYCTREDPDLGIGGSFDYWGQGRLVTVSS
chain 2: DIQLTQSPSSLSASVGDRVTITCRASQGISNYLAWYQQRPGKAPKLLIYTASTLQSGVPSRFSGSGSGTDFTLTISSLQPEDFATYYCQKLNSYPPMYTFGQGTKLEIK
pseudovirus neutralization IC50 [1]: 0.209 µg/mL
pseudovirus neutralization IC50 [2]: 0.013 µg/mL
pseudovirus neutralization IC50 [3]: 0.00514 µg/mL
pseudovirus neutralization IC50 [4]: 0.272 µg/mL
pseudovirus neutralization IC50 [5]: > 10 µg/mL
pseudovirus neutralization IC50 [6]: 0.494 µg/mL
pseudovirus neutralization IC50 [7]: 0.0262 µg/mL

B6: BD56-1785 (protein)
chain 1: EVQLVESGGGLVQPGRSLRLSCAASGFPFDDYAMHWVRQAPGKGLEWVSGISWNGGVIGYADSVKGRCIISRDNAKNSLYLQMNSLRAEDTALYYCVKDMSGGDYQHYFDHWGQGTLVSVSS
chain 2: SYVLTQPPSVSVAPGKTARITCGGNYIGSKSVHWYQQRPGQAPVLVVHDDSDRPSGIPERLSGSKSGNTATLTISRVEAGDEADYYCQMWDSSSDVYVFGTGTKVTVL
pseudovirus neutralization IC50 [1]: 0.0298 µg/mL
pseudovirus neutralization IC50 [2]: 0.041 µg/mL
pseudovirus neutralization IC50 [3]: 0.00968 µg/mL
pseudovirus neutralization IC50 [4]: > 10 µg/mL
pseudovirus neutralization IC50 [5]: > 10 µg/mL
pseudovirus neutralization IC50 [6]: > 10 µg/mL
pseudovirus neutralization IC50 [7]: 0.0195 µg/mL
